Here are results for one molecule from patent publication US20220226282A1 (priority 2021, published 2022).

By UniProt entry, the sequences of proteins in these tests, tags left out. Residues count along the entry.
UniProt P0DPI0, 2-448 limits assumed: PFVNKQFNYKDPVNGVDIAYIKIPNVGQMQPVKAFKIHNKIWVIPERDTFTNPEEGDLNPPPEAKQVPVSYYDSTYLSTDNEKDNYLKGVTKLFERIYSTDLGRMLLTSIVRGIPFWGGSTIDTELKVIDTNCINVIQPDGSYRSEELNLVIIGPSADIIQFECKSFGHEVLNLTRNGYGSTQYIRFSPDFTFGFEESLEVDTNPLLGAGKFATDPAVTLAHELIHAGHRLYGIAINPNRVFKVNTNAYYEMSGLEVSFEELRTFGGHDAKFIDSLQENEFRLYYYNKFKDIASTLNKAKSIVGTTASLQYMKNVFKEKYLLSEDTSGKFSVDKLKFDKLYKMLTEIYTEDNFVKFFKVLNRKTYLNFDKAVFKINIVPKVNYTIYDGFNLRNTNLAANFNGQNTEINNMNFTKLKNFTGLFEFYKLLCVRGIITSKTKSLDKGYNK

The structures appear in SMILES notation.

This experiment concerns the target BoNT/A LC (Clostridium botulinum, UniProt P0DPI0). Briefly: FRET peptide substrate-based BoNT/A LC endopeptidase assay. Type of experiment: biochemical, C. botulinum. The following applies: more elaborate testing of selected inhibitors.

Regarding `O=c1ccc2cc3c(-c4ccc([N+](=O)[O-])cc4)coc3cc2o1` [Compound 1, 3-(4-nitrophenyl)-7H-furo[3,2-g]chromen-7-one], the “effectiveness against BoNT/A endopeptidase” value is listed as “high effectiveness”.
